Laboratory results published in patent US6794396B2, “Substituted pyridines useful for inhibiting cholesteryl ester transfer protein activity” (Pharmacia Corporation, priority 1998, dated 2004).
pIC50: −log10 of the molar value.

Target: T1, CETP (Homo sapiens, UniProt P11597)
T1 construct: made in house; host or cells: CHO cells (serum-free conditioned medium)
T1 sequence (P11597 18-493): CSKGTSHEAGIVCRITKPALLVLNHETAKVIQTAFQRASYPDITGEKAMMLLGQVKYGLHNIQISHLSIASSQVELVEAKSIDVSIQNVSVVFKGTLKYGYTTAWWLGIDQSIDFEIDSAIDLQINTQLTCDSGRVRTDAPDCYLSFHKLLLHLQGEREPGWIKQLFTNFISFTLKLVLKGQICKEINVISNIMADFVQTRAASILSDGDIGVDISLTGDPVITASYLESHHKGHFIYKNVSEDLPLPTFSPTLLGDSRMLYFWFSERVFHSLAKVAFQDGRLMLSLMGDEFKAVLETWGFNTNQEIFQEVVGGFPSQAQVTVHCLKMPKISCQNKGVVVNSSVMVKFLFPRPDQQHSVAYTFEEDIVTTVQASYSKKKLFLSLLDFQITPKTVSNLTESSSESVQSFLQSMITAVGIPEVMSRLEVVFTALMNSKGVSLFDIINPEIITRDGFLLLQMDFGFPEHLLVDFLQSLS
Assay: CETP activity in vitro: transfer of [3H]CE from HDL donor to LDL acceptor particles
Type: biochemical
Details: IC50(μm), 50% inhibition of [3H]CE transfer from HDL to LDL, 2 hours at 37° C.
Description: The ability of compounds to inhibit CETP were assessed using an in vitro assay that measured the rate of transfer of radiolabeled cholesteryl ester ([^3H]CE) from HDL donor particles to LDL acceptor particles. Details of the assay are provided by Glenn et al. (“Quantification of Cholesteryl Ester Transfer Protein (CETP): A) CETP Activity and B) Immunochemical Assay of CETP Protein,” Meth. Enzymol., Glenn and Melton (Meth. Enzymol., 263, 339-351 (1996), which is incorporated herein by reference). CETP was obtained from the serum-free conditioned medium of CHO cells transfected with a cDNA for CETP (Wang, S. et al. J. Biol Chem. 267, 17487-17490 (1992), which is incorporated herein by reference).
To measure CETP activity, [^3H]CE-labeled HDL, LDL, CETP and assay buffer (50 mM tris(hydroxymethyl)amino-methane, pH 7.4; 150 mM sodium chloride; 2 mM ethylenediamine-tetraacetic acid; 1% bovine serum albumin) were incubated in a volume of 200 μl, for 2 hours at 37° C. in 96 well plates. LDL was differentially precipitated by the addition of 50 μl of 1% (w/v) dextran sulfate/0.5 M magnesium chloride, mixed by vortex, and incubated at room temperature for 10 minutes The solution (200μl) was transferred to a filter plate (Millipore). After filtration, the radioactivity present in the precipitated LDL was measured by liquid scintillation counting.
This value was defined as the IC50.

COC(=O)c1c(C(F)F)nc(C(F)(F)F)c(SCCCl)c1CC(C)C [Compound 44, Methyl 5-(Chloroethylthio)-2-(difluoromethyl)-4-(2-methylpropyl)-6-(trifluoromethyl)-3-pyridinecarboxylate] gave a pIC50 of 4.30.
